This assay concerns Mycobacterium tuberculosis. As to the kind of experiment: Binding affinity to Mycobacterium tuberculosis PanD assessed as change in enthalpy by isothermal titration calorimetry. On the technique in general: In ITC the heat of successive injections is recorded.

On to `CCCNc1nccnc1C(=O)O`, for which the deltaH is -1.3 kcal/mol.
`O=C(O)c1cnccn1` [PYRAZINOIC ACID]: the deltaH is -10 kcal/mol.
Then `Nc1nccnc1C(=O)O`, with -5.3 kcal/mol.
Then `Nc1cnc(C(=O)O)cn1`, with -6.6 kcal/mol.
For `O=C(O)c1nccnc1Nc1ccccc1` the value was -2.8 kcal/mol.
